Compound potency records, mixed from different reports. Data source: NIAID ChemDB in PubChem.

Shared fields: growth or infection tests; agent: HIV-1; endpoint: fold resistance

Fold resistance has wild type as its base.

SMILES,strain,mutations,cell line,read by,value
CCOP(=O)(COc1ccc(C[C@H](NC(=O)O[C@H]2CO[C@H]3OCC[C@H]32)[C@H](O)CN(CC(C)C)S(=O)(=O)c2ccc(OC)cc2)cc1)OCC,IIIB,D437N L441P,MT-2,p24 / ELISA,1.7
O=c1[nH]cnc2c1ncn2[C@H]1CC[C@@H](CO)O1,Recombinant,RT-M41L A62V S68N G112S V118I M184V,HeLa,luciferase,0.7
Cc1ccc(NC(=O)CSc2nnc(C)n2-c2ccc(C)c3ccccc23)c(Cl)c1,NL4-3,RT-Y188L,HeLa + HeLa-JC53,luciferase,100
Cc1cn([C@H]2C[C@H](N=[N+]=[N-])[C@@H](CO)O2)c(=O)[nH]c1=O,clinical isolate A012D (RT D67N K70R T215F K219Q),RT-D67N K70R T215F K219Q,HT4 + HT4-6C,plaque count,200
Nc1nc(=O)n([C@@H]2CS[C@H](CO)O2)cc1F,-,RT-M41L D67N M184V L210W T215Y,-,-,~20
COC(=O)c1cc2c(c(OC)c1-c1ccc(N(C)C)cc1)OCO2,NL4-3,E138K,C8166,antigen,34
O=c1[nH]cnc2c1ncn2[C@H]1CC[C@@H](CO)O1,7295-1 NRTI resistant recombinant,RT-D67N T69N K70R M184V T215F K219Q,PBMC,RT activity,1.9
CN[C@H]1CO[C@@H]2OCC[C@H](OC(=O)N[C@@H](Cc3cccc(OC)c3)[C@H](O)CN(CC(C)C)S(=O)(=O)c3ccc4nc(NC(C)C)sc4c3)[C@@H]21,NL4-3,L10I I15V K20R L24I V32I M36I M46I I54V I62V L63P K70Q V82A L88M,MT-4,p24 / luminescence,0.1
O=c1[nH]cnc2c1ncn2[C@H]1CC[C@@H](CO)O1,HXB2,RT-L74V,CD4+HELA + HeLa,plaque count,6
Cc1ccc(-n2c(C)nnc2SCC(=O)Nc2ccccc2Cl)cc1,NL4-3,RT-K103N Y181C,HeLa + HeLa-JC53,luciferase,215
Cc1cn([C@H]2C=C[C@@H](CO)O2)c(=O)[nH]c1=O,HXB2,RT-L74V,CD4+HELA + HeLa,plaque count,1.7
Nc1nc(NC2CC2)c2ncn([C@H]3C=C[C@@H](CO)C3)c2n1,56252-1 NRTI resistant recombinant,RT-T69K K70G V75I F77L F116Y Q151M M184V,PBMC,RT activity,>100
O=C1O[C@H]2[C@@H]3OC(=O)c4cc(O)c(O)c(O)c4-c4c(cc(O)c(O)c4O)C(=O)OC[C@H]2O[C@@H](OC(=O)c2cc(O)c(O)c(O)c2)[C@@H]3OC(=O)c2cc(O)c(O)c3c2[C@@H]2C1=CC(=O)[C@](O)(O3)C2(O)O,NRTI resistant (RT D67N K70R T215F K219Q) ARP141,RT-D67N K70R T215F K219Q,MAGI,-,1.12
Nc1nc2c(ncn2[C@H]2CO[C@@H](CO)O2)c(=O)[nH]1,Clinical isolate,RT-K103N,-,-,~0.172
Nc1ccn([C@@H]2CS[C@H](CO)O2)c(=O)n1,7324-1 NRTI resistant recombinant,RT-M41L D67N T69N K70R T215F K219E,PBMC,RT activity,4.1
Cc1cn([C@H]2C[C@H](N=[N+]=[N-])[C@@H](CO)O2)c(=O)[nH]c1=O,Pyridinone-resistant (RT K103N Y181C),RT-K103N Y181C,CEM + CEM-SS,XTT,0.2
CC(C)CN(C[C@@H](O)[C@H](Cc1ccccc1)NC(=O)[C@H](CC(N)=O)NC(=O)c1ccc2ccccc2n1)C(=O)NC(C)(C)C,NL4-3,PR-M46I V82T,MT-4,p24,2
COc1cc(C(F)(F)F)cc(S(=O)(=O)c2cccc(N)c2C#N)c1,-,RT-Y181C,HeLa + HELA CD4+,β-galactosidase,929
O=C(NCc1ccc(F)cc1)c1nc(N2CCCCS2(=O)=O)c2cccnc2c1O,-,INTG-T66I N155S,-,-,190
Nc1ccn([C@@H]2CO[C@H](CO)S2)c(=O)n1,HXB2D (RT-K65R),RT-K65R,CBMC,RT activity,1.91
COc1ccc(S(=O)(=O)N(CC(C)C)C[C@@H](O)[C@H](Cc2ccccc2)NC(=O)O[C@H]2CCO[C@H]3OCC[C@H]32)cc1,NL4-3,L10I I54V K20R L24I V32I L33F M36I M46I I54M L63P K70Q V82I I84V L89M,MT-4,p24 / luminescence,>227
Cc1cc(Br)cc(S(=O)(=O)c2cccc(N)c2C#N)c1,-,RT-Y188C,HeLa + HELA CD4+,β-galactosidase,19.1
Cc1ccnc2c1NC(=O)c1cccnc1N2C1CC1,J-2 (RT-Y181C),RT-Y181C,CEM,cytopathic effect,102
CC(=O)c1ccc(C)cc1NC(C(N)=O)c1c(Cl)cccc1Cl,IIIB,RT-K103N,MAGI,MTT,84.4
C=C[C@]1(CO)O[C@@H](n2cc(C)c(=O)[nH]c2=O)C[C@@H]1O,RTMDR,RT,HeLa,β-galactosidase,1.2
Nc1ccn([C@H]2CC[C@@H](CO)O2)c(=O)n1,Recombinant,RT-Q151M,PBMC,p24,0.035
CC[C@H]1C(=O)Nc2ccc(F)cc2N1C(=O)OC(C)C,D-3 (RT-V108I M184I),RT-V108I M184I,CEM,cytopathic effect,2
CC(C)(C)NC(=O)[C@@H]1C[C@@H]2CCCC[C@@H]2CN1C[C@@H](O)[C@H](Cc1ccccc1)NC(=O)[C@H](CC(N)=O)NC(=O)c1ccc2ccccc2n1,NL4-3,PR-L10R,MT-4,p24,2
Cc1cn([C@H]2C[C@H](N=[N+]=[N-])[C@@H](CO)O2)c(=O)[nH]c1=O,Recombinant,RT-F116Y,PBMC,p24,0
CCN[C@H]1CO[C@@H]2OCC[C@H](OC(=O)N[C@@H](Cc3ccccc3)[C@H](O)CN(CC(C)C)S(=O)(=O)c3ccc4nc(NC5CC5)sc4c3)[C@@H]21,NL4-3,L10I I15V K20R L24I V32I M36I M46I I54V I62V L63P K70Q V82A L88M,MT-4,p24 / luminescence,0.5
Nc1ccn([C@H]2CC[C@@H](CO)O2)c(=O)n1,RTMC(181 184) (RT 67N 70R Y181C M184V T215F K219Q),RT-D67N K70R Y181C M184V T215F K219Q,HT4 + HT4 LacZ-1,plaque count,3.96
Cc1cn([C@H]2C[C@H](N=[N+]=[N-])[C@@H](CO)O2)c(=O)[nH]c1=O,-,INTG-T66I N155S,-,-,1
C[C@H](Cn1cnc2c(N)ncnc21)OCP(=O)(O)O,Site-directed mutant,RT-K65R Y115F,MT-2,cytopathic effect / XTT,5.9
Cn1c2ccccc2c2c1cc(C#N)c(=O)n2-c1ccc([N+](=O)[O-])cc1,NNRTI-resistant,RT-Y188L,HeLa,luciferase,0.3
O=c1[nH]cnc2c1ncn2[C@H]1CC[C@@H](CO)O1,IIIB-BHAP)(0.1)(RT-L100I,RT-L100I,CEM,syncytia,2.2
Nc1ccn([C@H]2CC[C@@H](CO)O2)c(=O)n1,BCF06,RT-A98G K103R,PBMC,-,1.07
Nc1nc(=O)n([C@@H]2CC[C@H](CO)O2)cc1F,RTMC (RT D67N K70R T215F K219Q),RT-D67N K70R T215F K219Q,HT4 + HT4 LacZ-1,-,2.5
O=c1[nH]cnc2c1ncn2[C@H]1CC[C@@H](CO)O1,HXB2D (RT-K65R),RT-K65R,CBMC,p24,3.55
CC(C)=CCN1Cc2cc(Cl)cc3[nH]c(=S)n(c23)C[C@@H]1C,RTMC (RT-Y181C),RT-D67N K70R Y181C T215Y K219Q,HT4 + HT4 LacZ-1,plaque count,22.7
CC(C)Nc1cccnc1N1CCN(C(=O)c2cc3cc(NS(C)(=O)=O)ccc3[nH]2)CC1,B-1 (RT L100V K103R/K Y188H),RT-L100V K103R/K Y188H,CEM,cytopathic effect,100
O=c1[nH]cnc2c1ncn2[C@H]1CC[C@@H](CO)O1,RTMN (RT-M41L T215Y),RT-M41L T215Y,HT4 + HT4 LacZ-1,plaque count,2.4
Cc1ccnc2c1NC(=O)c1cccnc1N2C1CC1,BCF02,RT-A98G V106I Y181C,PBMC,-,210
CCc1ccc(-n2c(C)nnc2SCC(=O)Nc2ccccc2Br)c2ccccc12,NL4-3,RT-K103N Y181C,HeLa + HeLa-JC53,luciferase,44
Nc1ncnc2c1ncn2CCOCP(=O)(O)O,IIIB-BHAP)(0.1)(RT-L100I,RT-L100I,CEM,syncytia,1.14
COC(=O)N[C@H](C(=O)N[C@@H](Cc1ccccc1)[C@@H](O)CN(Cc1ccc(-c2ccccn2)cc1)NC(=O)[C@@H](NC(=O)OC)C(C)(C)C)C(C)(C)C,NL4-3,L10F K20T D30N K45I A71V V77I,MT-4,p24 / luminescence,4
CC(C)=CCN1Cc2cc(Cl)cc3[nH]c(=S)n(c23)C[C@@H]1C,MVP5180 (RT A98G K103R),RT-A98G K103R,PBMC,-,>312.5
Cc1ccc(-n2c(C)nnc2SCC(=O)Nc2ccccc2Br)cc1,NL4-3,RT-K103N Y181C,HeLa + HeLa-JC53,luciferase,190
Cc1cn([C@H]2C[C@H](N=[N+]=[N-])[C@@H](CO)O2)c(=O)[nH]c1=O,IIIB-TSAO-m3T(10)(RT-Y181C),RT-Y181C,CEM,syncytia,0.667
CC(C)Nc1cccnc1N1CCN(C(=O)c2cc3cc(NS(C)(=O)=O)ccc3[nH]2)CC1,BaL,RT-V106A,Macrophage + Monocytes/macrophages,p24,160
CC(C)OC(=O)OCOP(=O)(CO[C@H](C)Cn1cnc2c(N)ncnc21)OCOC(=O)OC(C)C,JF4A ddC-resistant (RT T69D),RT-T69D,MT-2,p24,0.189
CC(C)OC(=O)OCOP(=O)(CO[C@H](C)Cn1cnc2c(N)ncnc21)OCOC(=O)OC(C)C,7324-1 NRTI resistant recombinant,RT-M41L D67N T69N K70R T215F K219E,PBMC,RT activity,8.1
CCN[C@H]1CO[C@@H]2OCC[C@H](OC(=O)N[C@@H](Cc3cccc(OC)c3)[C@H](O)CN(CC(C)C)S(=O)(=O)c3ccc4nc(NC(C)C)sc4c3)[C@@H]21,NL4-3,L10F M46I I54V V82A,MT-4,p24 / luminescence,10
Cc1ccnc2c1NC(=O)c1cccnc1N2C1CC1,Pyridinone-resistant (RT K103N Y181C),RT-Y181C L103N,CEM + CEM-SS,XTT,>3800
Cc1cc(O)cc(S(=O)(=O)c2cccc(N)c2C#N)c1,-,RT-V108I Y181C,HeLa + HELA CD4+,β-galactosidase,571
Nc1ccn([C@@H]2CC[C@H](CO)O2)c(=O)n1,184V (RT-M184V),RT-M184V,HT4 + HT4 LacZ-1,-,45
O=c1[nH]cnc2c1ncn2[C@H]1CC[C@@H](CO)O1,RTMDR,RT,HeLa,β-galactosidase,3.13
CC(C)(C)C(=O)c1sc(C(=O)NCc2ccccc2)c(O)c1O,-,INTG-S153 N155S,-,-,2
Nc1ccn([C@H]2CC[C@@H](CO)O2)c(=O)n1,IIIB-TIBO(0.5)(RT-L100I),RT-L100I,CEM,syncytia,0.6
CC(C)Nc1cccnc1N1CCN(C(=O)c2cc3cc(NS(C)(=O)=O)ccc3[nH]2)CC1,B9 (RT L100I V106A G190A),RT-L100I V106A G190A,H9,p24,>55.6
Cc1cn([C@H]2C[C@H](N=[N+]=[N-])[C@@H](CO)O2)c(=O)[nH]c1=O,Site-directed mutant,RT-K65R M184V,MT-2,cytopathic effect / XTT,0.4
Fc1cccc(F)c1C1SCc2nc3ccccc3n21,Dihydrocostatolide-resistant (RT-L100I),RT-L100I,CEM + CEM-SS,XTT,9.12
COC(=O)N[C@H](C(=O)N[C@@H](Cc1ccccc1)[C@@H](O)CN(Cc1ccc(-c2ccccn2)cc1)NC(=O)[C@@H](NC(=O)OC)C(C)(C)C)C(C)(C)C,Site-directed PR mutant 06,PR-I50L A71V,HeLa,β-galactosidase,5.3
COc1ccc2c(c1)N(C(=O)OC(C)C)[C@@H](CSC)C(=S)N2,B9 (RT L100I V106A G190A),RT-L100I V106A G190A,H9,p24,>1430
C[C@H](Cn1cnc2c(N)ncnc21)OCP(=O)(O)O,Recombinant,RT-V118I M184V,HeLa,luciferase,1
Cc1cn([C@H]2C[C@H](N=[N+]=[N-])[C@@H](CO)O2)c(=O)[nH]c1=O,-,RT-M184V,CD4+HELA + HeLa,p24,0.4375
Nc1ccn([C@H]2C[C@H](O)[C@](CO)(CF)O2)c(=O)n1,RT-M41L T69SSG T215Y,RT M41L T69SSG insertion T215Y,HeLa,β-galactosidase,14.3
CCNc1cccnc1N1CCN(C(=O)c2cc3cc(OC)ccc3[nH]2)CC1,BaL,RT-V106A,Macrophage + Monocytes/macrophages,p24,>35
C#C[C@]1(CO)O[C@@H](n2cc(C)c(=O)[nH]c2=O)C[C@@H]1O,RT-M41L T69SSG T215Y,RT M41L T69SSG insertion T215Y,HeLa,β-galactosidase,1.22
O=c1[nH]cnc2c1ncn2[C@H]1CC[C@@H](CO)O1,JF10(RT-L210W),RT-L210W,HELA-CD4+,plaque count,0.78
Cc1ccc(S(=O)(=O)N(CC(C)C)C[C@@H](O)[C@H](Cc2ccccc2)NC(=O)O[C@H]2CO[C@H]3OCC[C@H]32)cc1,IIIB,D437N L441P,MT-2,p24 / ELISA,1.5
CCc1cc(NCc2nc3c(Cl)ccc(Cl)c3o2)c(=O)[nH]c1C,NL4-3,RT-Y188L,MT-4,p24,>30
Nc1nc2c(ncn2[C@H]2CO[C@@H](CO)O2)c(=O)[nH]1,RT M41L 74V 184V 210W 215Y 181C 190A,RT-M41L L74V Y181C M184V G190A L210W T215Y,-,-,3.2

The last 9 rows once more:

SMILES	strain	mutations	cell line	read by	value
C[C@H](Cn1cnc2c(N)ncnc21)OCP(=O)(O)O	Recombinant	RT-V118I M184V	HeLa	luciferase	1
Cc1cn([C@H]2C[C@H](N=[N+]=[N-])[C@@H](CO)O2)c(=O)[nH]c1=O	-	RT-M184V	CD4+HELA + HeLa	p24	0.4375
Nc1ccn([C@H]2C[C@H](O)[C@](CO)(CF)O2)c(=O)n1	RT-M41L T69SSG T215Y	RT M41L T69SSG insertion T215Y	HeLa	β-galactosidase	14.3
CCNc1cccnc1N1CCN(C(=O)c2cc3cc(OC)ccc3[nH]2)CC1	BaL	RT-V106A	Macrophage + Monocytes/macrophages	p24	>35
C#C[C@]1(CO)O[C@@H](n2cc(C)c(=O)[nH]c2=O)C[C@@H]1O	RT-M41L T69SSG T215Y	RT M41L T69SSG insertion T215Y	HeLa	β-galactosidase	1.22
O=c1[nH]cnc2c1ncn2[C@H]1CC[C@@H](CO)O1	JF10(RT-L210W)	RT-L210W	HELA-CD4+	plaque count	0.78
Cc1ccc(S(=O)(=O)N(CC(C)C)C[C@@H](O)[C@H](Cc2ccccc2)NC(=O)O[C@H]2CO[C@H]3OCC[C@H]32)cc1	IIIB	D437N L441P	MT-2	p24 / ELISA	1.5
CCc1cc(NCc2nc3c(Cl)ccc(Cl)c3o2)c(=O)[nH]c1C	NL4-3	RT-Y188L	MT-4	p24	>30
Nc1nc2c(ncn2[C@H]2CO[C@@H](CO)O2)c(=O)[nH]1	RT M41L 74V 184V 210W 215Y 181C 190A	RT-M41L L74V Y181C M184V G190A L210W T215Y	-	-	3.2

Neighbouring rows are from separate reports. Blank or dashed fields: not listed here.